In assay [1] the target is Nicotinic acetylcholine receptor alpha1/beta1/epsilon/delta (Mus musculus) (UniProt P04756+P09690+P02716+P20782). Kind of assay: Antagonist activity at mouse alpha1beta1deltaepsilon nACh receptor expressed in Xenopus oocyte assessed as inhibition of acetylcholine-induced response at -70 mV holding potential by measuring ratio of IC50 by voltage-clamp based electrophysiological assay relative to GeXIVA. Conditions: filed as antagonist.

The chains behind the UniProt entries cited, without tags or fusion partners. Residues count along the entry.
UniProt P04756, 21-457 limits assumed: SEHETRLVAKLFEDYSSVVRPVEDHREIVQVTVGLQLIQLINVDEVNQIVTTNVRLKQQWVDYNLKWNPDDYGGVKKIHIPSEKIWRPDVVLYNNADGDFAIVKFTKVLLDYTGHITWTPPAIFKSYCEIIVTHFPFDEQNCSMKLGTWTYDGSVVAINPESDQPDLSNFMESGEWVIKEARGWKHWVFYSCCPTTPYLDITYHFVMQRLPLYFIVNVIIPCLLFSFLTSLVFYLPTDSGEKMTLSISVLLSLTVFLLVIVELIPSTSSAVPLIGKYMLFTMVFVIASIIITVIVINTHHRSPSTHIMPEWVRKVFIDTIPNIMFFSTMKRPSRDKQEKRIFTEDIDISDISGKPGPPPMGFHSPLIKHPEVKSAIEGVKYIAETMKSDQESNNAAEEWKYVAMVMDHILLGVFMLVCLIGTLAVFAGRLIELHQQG
UniProt P09690, 24-501 partner limits assumed: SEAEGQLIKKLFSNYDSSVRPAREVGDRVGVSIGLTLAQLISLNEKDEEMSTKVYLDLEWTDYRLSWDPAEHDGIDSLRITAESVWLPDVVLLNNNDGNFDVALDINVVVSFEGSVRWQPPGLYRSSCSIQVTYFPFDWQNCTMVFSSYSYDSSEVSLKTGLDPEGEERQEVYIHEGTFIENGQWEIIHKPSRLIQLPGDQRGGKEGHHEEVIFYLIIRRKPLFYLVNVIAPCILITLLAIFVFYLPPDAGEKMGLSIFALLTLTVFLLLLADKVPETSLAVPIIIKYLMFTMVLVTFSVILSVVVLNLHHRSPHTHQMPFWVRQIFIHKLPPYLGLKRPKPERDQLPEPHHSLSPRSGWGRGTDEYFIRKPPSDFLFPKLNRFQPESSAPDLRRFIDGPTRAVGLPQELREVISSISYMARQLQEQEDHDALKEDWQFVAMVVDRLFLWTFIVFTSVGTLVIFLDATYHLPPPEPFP
UniProt P02716, 25-520 partner limits assumed: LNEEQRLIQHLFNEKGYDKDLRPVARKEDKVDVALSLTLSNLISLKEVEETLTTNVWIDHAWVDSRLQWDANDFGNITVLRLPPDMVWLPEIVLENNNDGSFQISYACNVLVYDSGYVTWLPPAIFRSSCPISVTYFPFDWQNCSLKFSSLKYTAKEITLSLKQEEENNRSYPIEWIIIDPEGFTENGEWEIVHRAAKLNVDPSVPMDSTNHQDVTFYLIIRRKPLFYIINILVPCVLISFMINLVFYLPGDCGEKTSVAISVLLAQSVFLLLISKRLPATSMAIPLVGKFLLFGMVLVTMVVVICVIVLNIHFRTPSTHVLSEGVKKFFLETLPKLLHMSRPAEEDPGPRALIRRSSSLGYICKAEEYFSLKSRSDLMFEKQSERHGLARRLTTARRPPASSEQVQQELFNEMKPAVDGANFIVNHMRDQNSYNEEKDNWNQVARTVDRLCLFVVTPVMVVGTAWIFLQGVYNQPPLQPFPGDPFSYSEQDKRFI
UniProt P20782, 21-493 partner limits assumed: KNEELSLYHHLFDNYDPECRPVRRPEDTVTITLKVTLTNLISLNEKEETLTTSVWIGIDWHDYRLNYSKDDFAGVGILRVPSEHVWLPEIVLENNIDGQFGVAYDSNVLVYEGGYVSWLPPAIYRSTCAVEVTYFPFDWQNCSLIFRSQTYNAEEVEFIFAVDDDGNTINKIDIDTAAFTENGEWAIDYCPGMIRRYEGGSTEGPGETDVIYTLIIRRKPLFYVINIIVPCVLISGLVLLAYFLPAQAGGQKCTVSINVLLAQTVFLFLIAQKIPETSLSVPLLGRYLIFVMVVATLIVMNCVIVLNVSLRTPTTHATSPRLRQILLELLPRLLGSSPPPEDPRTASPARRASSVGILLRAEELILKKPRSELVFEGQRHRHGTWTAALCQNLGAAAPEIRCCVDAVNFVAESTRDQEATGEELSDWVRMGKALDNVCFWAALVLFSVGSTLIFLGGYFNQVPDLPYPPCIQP

Assay [2] in a line: Selectivity ratio of IC50 for mouse alpha1beta1deltaepsilon nACh receptor to IC50 for rat alpha9alpha10 nACh receptor.

Turning to `CC[C@H](C)[C@@H]1NC(=O)[C@H](CCCNC(=N)N)NC(=O)[C@H](CCCNC(=N)N)NC(=O)[C@@H]2CSSC[C@H](NC(=O)[C@H](Cc3ccc(O)cc3)NC(=O)[C@H](CCCNC(=N)N)NC(=O)CNC(=O)[C@H](CO)NC(=O)[C@H](CO)NC(=O)[C@H](CCCNC(=N)N)NC(=O)[C@@H](NC(=O)[C@@H](N)[C@@H](C)O)CSSC[C@@H](C(=O)N[C@H](C(=O)O)C(C)C)NC(=O)[C@H](C)NC(=O)[C@H](CC(=O)O)NC(=O)[C@H]([C@@H](C)O)NC1=O)C(=O)N[C@@H](C)C(=O)N[C@@H](CO)C(=O)N1CCC[C@H]1C(=O)N[C@@H](Cc1ccc(O)cc1)C(=O)N[C@@H](CC(=O)O)C(=O)N[C@@H](CCCNC(=N)N)C(=O)N[C@@H](CCCNC(=N)N)C(=O)N[C@@H](CCCNC(=N)N)C(=O)N[C@@H](CCCNC(=N)N)C(=O)N[C@@H](Cc1ccc(O)cc1)C(=O)N2`, the Ratio IC50 in assay [1] was 0.6; in assay [2], 13.4.
On to `CC[C@H](C)[C@@H]1NC(=O)[C@H](CCCNC(=N)N)NC(=O)[C@H](CCCNC(=N)N)NC(=O)[C@@H]2CSSC[C@H](NC(=O)[C@H](Cc3ccc(O)cc3)NC(=O)[C@H](CCCNC(=N)N)NC(=O)CNC(=O)[C@H](C)NC(=O)[C@H](CO)NC(=O)[C@H](CCCNC(=N)N)NC(=O)[C@@H](NC(=O)[C@@H](N)[C@@H](C)O)CSSC[C@@H](C(=O)N[C@H](C(=O)O)C(C)C)NC(=O)[C@H](C)NC(=O)[C@H](CC(=O)O)NC(=O)[C@H]([C@@H](C)O)NC1=O)C(=O)N[C@@H](CCCNC(=N)N)C(=O)N[C@@H](CO)C(=O)N1CCC[C@H]1C(=O)N[C@@H](Cc1ccc(O)cc1)C(=O)N[C@@H](CC(=O)O)C(=O)N[C@@H](CCCNC(=N)N)C(=O)N[C@@H](CCCNC(=N)N)C(=O)N[C@@H](CCCNC(=N)N)C(=O)N[C@@H](CCCNC(=N)N)C(=O)N[C@@H](Cc1ccc(O)cc1)C(=O)N2`, for which the Ratio IC50 in assay [1] amounted to 1.1; in assay [2], 15.2.
In the case of `CC[C@H](C)[C@@H]1NC(=O)[C@H](CCCNC(=N)N)NC(=O)[C@H](CCCNC(=N)N)NC(=O)[C@@H]2CSSC[C@H](NC(=O)[C@H](Cc3ccc(O)cc3)NC(=O)[C@H](CCCNC(=N)N)NC(=O)CNC(=O)[C@H](CO)NC(=O)[C@H](CO)NC(=O)[C@H](CCCNC(=N)N)NC(=O)[C@@H](NC(=O)[C@@H](N)[C@@H](C)O)CSSC[C@@H](C(=O)N[C@H](C(=O)O)C(C)C)NC(=O)[C@H](C)NC(=O)[C@H](CC(=O)O)NC(=O)[C@H]([C@@H](C)O)NC1=O)C(=O)N[C@@H](CCCNC(=N)N)C(=O)N[C@@H](CO)C(=O)N1CCC[C@H]1C(=O)N[C@@H](Cc1ccc(O)cc1)C(=O)N[C@@H](CC(=O)O)C(=O)N[C@@H](CCCNC(=N)N)C(=O)N[C@@H](C)C(=O)N[C@@H](CCCNC(=N)N)C(=O)N[C@@H](CCCNC(=N)N)C(=O)N[C@@H](Cc1ccc(O)cc1)C(=O)N2`, the Ratio IC50 was determined as 1.9 in assay [1] and 19.6 in assay [2].
For the compound `CC(C)[C@H](NC(=O)[C@@H]1CSSC[C@H](NC(=O)[C@H](Cc2ccc(O)cc2)NC(=O)[C@H](CCCNC(=N)N)NC(=O)[C@H](CCCNC(=N)N)NC(=O)[C@H](CCCNC(=N)N)NC(=O)[C@H](CCCNC(=N)N)NC(=O)[C@H](CC(=O)O)NC(=O)[C@H](Cc2ccc(O)cc2)NC(=O)[C@@H]2CCCN2C(=O)[C@H](CO)NC(=O)[C@H](CCCNC(=N)N)NC(=O)[C@@H]2CSSC[C@H](NC(=O)[C@@H](N)[C@@H](C)O)C(=O)N[C@@H](CCCNC(=N)N)C(=O)N[C@@H](CO)C(=O)N[C@@H](CO)C(=O)NCC(=O)N[C@@H](CCCNC(=N)N)C(=O)N[C@@H](Cc3ccc(O)cc3)C(=O)N2)C(=O)N[C@@H](CCCNC(=N)N)C(=O)N[C@@H](CCCNC(=N)N)C(=O)N[C@@H](C)C(=O)N[C@@H]([C@@H](C)O)C(=O)N[C@@H](CC(=O)O)C(=O)N[C@@H](C)C(=O)N1)C(=O)O`, the Ratio IC50 in assay [1] amounted to 9.3; in assay [2], 302.

Source of the values: ChEMBL document CHEMBL5346973 (J Med Chem, 2023).
